Reference: US20150284438A1 (BIOVALENCE SDN BHD, published 2015)

Columns and labels:
[1] = target: T1, DEN2 cNS2B-NS3pro complex (Dengue virus 2 (DEN2 / DENV-2), UniProt P14340 1394-1440; P14340 1476-1660); assay: cell-based or functional assay
T1 sequence 1: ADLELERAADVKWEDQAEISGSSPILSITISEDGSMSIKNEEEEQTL
T1 sequence 2: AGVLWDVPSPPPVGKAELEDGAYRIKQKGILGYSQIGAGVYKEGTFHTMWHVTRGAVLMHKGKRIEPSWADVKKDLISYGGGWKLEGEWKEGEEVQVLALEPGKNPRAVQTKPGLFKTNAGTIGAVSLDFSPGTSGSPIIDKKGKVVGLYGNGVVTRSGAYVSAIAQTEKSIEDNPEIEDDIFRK

[2] = target: T1, DEN2 cNS2B-NS3pro complex

B1: Tamapal1 (other)
chain: VPGVGVPGVGKWCFRVCYRGICYRRCRVPGVGVPGVGGATGSDVNFDLSTATAKTYTKFIEDFRATLPFSHKVYDIPLLYSTISDSRRFILLNLTSYAYETISVAIDVTNVYVVAYRTRDVSYFFKESPPEAYNILFKGTRKITLPYTGNYENLQTAAHKIRENIDLGLPALSSAITTLFYYNAQSAPSALLVLIQTTAEAARFKYIERHVAKYVATNFKPNLAIISLENQWSALSKQIFLAQNQGGKFRNPVDLIKPTGERFQVTNVDSDVVKGNIKLLLNSRASTADENFITTMTLLGESVVNVPGVGVPGVGHGVSGHGQHGVHG
B1 was tested, and the “IC50 of NS2B-NS3 protease inhibition” value [1] was 4.74 µM and the Ki [2] was 2.37 µM.
